Results of single-concentration screens

A: 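Phenotypic screen: M. tuberculosis growth, glucose 7H9 medium, 3 days; the read-out is not stated. Tested at 50 µM. Higher reads as more growth inhibition (inferred: compounds with an IC50 in retests scored well above the rest). Size under these conditions: about 69,000 compounds, about 760 of them at 50% or above in at least one test.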
B: 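Whole-cell growth test on Mycobacterium tuberculosis, read after 4 days in a medium based on cholesterol and the lipid DPPC; the read-out is not stated. Concentration: 50 µM. Higher reads as more growth inhibition (inferred: compounds with an IC50 in retests scored well above the rest). About 69,000 compounds were tested under these conditions; 0.54% (about 370) showed 50% or more at least once.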

Each number is a percent effect as filed.
The record does not define 0% and 100%; most values in the screen are far below 50% and negative numbers occur (in some assays of this library far below -100).
The entries come from a sample that favours strong results.
Two or more numbers in one place are separate tests of the same structure; such repeats can differ widely.

{"compound": "Fc1cccc(-c2nnn3c2COC(CNCc2ccsc2)C3)c1.O=C(O)C(F)(F)F", "stereo": "stereo not drawn", "A": "4.898 and 23.91"}
{"compound": "COc1ccc(C(=O)Nc2c(C)nn(C(C)C)c2C)cc1", "A": -30.75, "B": "-2.967 and -18.76"}
{"compound": "CCOC(=O)CNC(=O)N1CCOC(CCc2ccccc2)C1", "stereo": "stereo not drawn", "A": -13.37}
{"compound": "COc1ccc(C[C@H]2CN(c3cc(OC)ncn3)CC[C@@H]2OC)cc1.O=C(O)C(F)(F)F", "A": "26.59 and 31.79", "B": 4.167}
{"compound": "CC(Oc1cc(Cl)cc(Cl)c1)C(=O)NCCOCC(N)=O", "stereo": "stereo not drawn", "A": -20.09}
{"compound": "Cc1cc(C(=O)NCCCn2nccc2C2CC2)c(=O)[nH]c1C", "B": "-9.475 and -5.55"}
{"compound": "COCc1cccc(NC(C(N)=O)c2ccc(Br)cc2)c1", "stereo": "stereo not drawn", "A": "-10.24 and 9.366", "B": -2.632}
{"compound": "COc1ccccc1OCCn1c(C)c(C)oc1=O", "B": 59.41}
{"compound": "Cn1cncc1CN1CCCC1c1cncc(Oc2ccc(Cl)cc2)n1", "stereo": "stereo not drawn", "A": 5.854}
{"compound": "CN(C)C(=O)c1csc(-c2ccoc2)n1", "A": -0.8984, "B": -8.097}
{"compound": "FC(F)(F)Sc1ccccc1NCc1nc(C2CC2)no1", "A": "52.77 and 53.47"}
{"compound": "O=C(O)[C@@H]1CN(Cc2c[nH]c(CC3CCCC3)n2)C[C@H]1c1ccccn1", "B": -9.003}
{"compound": "Cc1nc2cc(=O)[nH]n2c(C)c1CC(=O)NCCCc1ccccc1", "A": -13.82}
{"compound": "OC1(CN2CCC(Oc3cccc(C(F)(F)F)c3)CC2)CCNC1", "stereo": "stereo not drawn", "A": 74.22}
{"compound": "CC(=O)NCC(=O)N1CCc2nc(-c3ccccc3)nc(C)c2CC1", "A": "5.165 and 52.34"}
{"compound": "Cc1ccc(-c2noc(CN3CCOC(CN(C)C)C3)n2)cc1F", "stereo": "stereo not drawn", "A": 2.258, "B": 2.662}
{"compound": "c1cnc(N2CCC(c3nccn3CC3CC3)CC2)nc1", "B": -3.019}
{"compound": "CO[C@H]1CCN(Cc2ccoc2)C[C@@H]1Cc1ccccc1.O=C(O)C(F)(F)F", "A": -31.35}
{"compound": "Cc1nn(C)c(C)c1C(=O)NCc1cc(N(C)C)nc2ccccc12", "A": -11.22, "B": -14.85}
{"compound": "COc1ccc(CC(=O)NCCNS(=O)(=O)c2ccc(C)cc2)cc1", "A": 2.682}
{"compound": "NC(=O)CNC(c1ccccc1)c1ccc(OC(F)F)cc1", "stereo": "stereo not drawn", "A": "2.603 and -1.4", "B": -17.36}
{"compound": "O=C(NCCc1ccccc1Cl)NCC1(O)CCSC1", "stereo": "stereo not drawn", "A": 27.55, "B": 7.611}
{"compound": "CC(C)C(C)(O)CNc1cccc(F)c1C#N", "stereo": "stereo not drawn", "B": 1.862}
{"compound": "Cc1ccc(C)c(S(=O)(=O)NCCNc2ccc(-n3cccc3)nn2)c1", "A": "26.13 and 16.51", "B": 39.54}
{"compound": "COCCN(Cc1ccoc1)S(=O)(=O)c1ccc(F)c(C)c1", "B": 7.343}
{"compound": "CCC(CNC(=O)c1ccc(Br)o1)N1CCc2ccccc2C1", "stereo": "stereo not drawn", "A": 59.25}

3 of the entries, repeated:

* COCc1cccc(NC(C(N)=O)c2ccc(Br)cc2)c1 (stereo not drawn) : A: -10.24% and 9.366%; B: -2.632%
* CN(C)C(=O)c1csc(-c2ccoc2)n1 : A: -0.8984%; B: -8.097%
* CC(Oc1cc(Cl)cc(Cl)c1)C(=O)NCCOCC(N)=O (stereo not drawn) : A: -20.09%

The values are deposited in ChEMBL (CHEMBL3988442, “University of Dundee, Small-Polar-MMV Screening Library” (2021)).